Taken from: PubChem BioAssay AID504761 (Drosophila RNAi Screening Center, 2011)
In all, the deposit lists about 22,000 reagents; shown is a random part of those that have a named target and a result. Over the whole deposit, 116 (0.52%) got an active call. 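Calls depend on retest data that are not deposited; infection was ranked per plate without normalising between plates; the unit of the infection score is not given.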 Raw values are not corrected between plates. The numbers tell different reagents against one gene apart. Not all columns of the deposit are shown. Reagent sequences are not shown. Not stated in the record: the amount of reagent, the time to read-out.

Purpose: 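Genome-wide fly cell screen for genes dengue virus requires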 (primary screen)
Cells: D.Mel-2 cells from Drosophila
Reagents: long dsRNA against Drosophila genes
Conditions: infection with dengue virus type 2; dose and infection time not stated
Measurement: 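Per well on two replicate plates, imaging gave the percent of cells positive for viral envelope protein, ranked by infection, and a nuclear count of cells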
Reading the numbers: infection score: higher = more virus-infected cells; cell count: higher = more cells in the well
Active means: 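Very low infection ranking in both replicate wells (chance probability at most 0.065), then a retest showing infection dropped 1.5-fold or more at p below 0.05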
Meaning of the calls: active = confirmed: knock-down lowers infection; inactive = not picked or not confirmed

For Tsr1 (Tsr1 ribosome assembly factor), what does the deposit list?
infection score, replicate 1: 2.51; cell count, replicate 1: 5743; activity call: inactive

For Jon65Aiv (Jonah 65Aiv) #1, what was measured?
infection score, replicate 1: 3.82; cell count, replicate 1: 6129; activity call: inactive

For Jon65Aiv (Jonah 65Aiv) #2, what does the deposit list?
infection score, replicate 1: 15.6; cell count, replicate 1: 5814; activity call: inactive

Which result is listed for Snrk (SNF related kinase) #1?
infection score, replicate 1: 30.4; cell count, replicate 1: 5765; activity call: inactive

How did the screen score Snrk (SNF related kinase) #2?
infection score, replicate 1: 0.6; cell count, replicate 1: 6643; activity call: inactive

For Cyp4s3 (Cytochrome P450 4s3) #1, what was measured?
infection score, replicate 1: 7.65; cell count, replicate 1: 6709; activity call: inactive

What is on record for Cyp4s3 (Cytochrome P450 4s3) #2?
infection score, replicate 1: 0.92; cell count, replicate 1: 6085; activity call: inactive

How did the screen score Cyp4s3 (Cytochrome P450 4s3) #3?
infection score, replicate 1: 2.51; cell count, replicate 1: 6222; activity call: inactive

For NT1 (Neurotrophin 1) #1, what was measured?
infection score, replicate 1: 2.58; cell count, replicate 1: 6058; activity call: inactive

With NT1 (Neurotrophin 1) #2, what does the deposit list?
infection score, replicate 1: 0.69; cell count, replicate 1: 5509; activity call: inactive

With CG18449, how do the results read?
infection score, replicate 1: 2.15; cell count, replicate 1: 6979; activity call: inactive

Which result is listed for CG6254?
infection score, replicate 1: 8.39; cell count, replicate 1: 3800; activity call: inactive

With SLC5A11 (Sodium/solute co-transporter-like 5A11), how do the results read?
infection score, replicate 1: 4.87; cell count, replicate 1: 6591; activity call: inactive

With CG30110, what was measured?
infection score, replicate 1: 2.2; cell count, replicate 1: 5272; activity call: inactive

For CG13059, what was measured?
infection score, replicate 1: 2.74; cell count, replicate 1: 4784; activity call: inactive

With Tom7 (Translocase of outer membrane 7) #1, what was measured?
infection score, replicate 1: 0.48; cell count, replicate 1: 6623; activity call: inactive

What did the screen give for Tom7 (Translocase of outer membrane 7) #2?
cell count, replicate 1: 405; activity call: inactive

How did the screen score CG14442?
infection score, replicate 1: 2.39; cell count, replicate 1: 6446; activity call: inactive

With GAPsec (GTPase activating protein, SECIS-dependent read-through) #1, what was measured?
infection score, replicate 1: 3.5; cell count, replicate 1: 6682; activity call: inactive

What did the screen give for GAPsec (GTPase activating protein, SECIS-dependent read-through) #2?
infection score, replicate 1: 4.1; cell count, replicate 1: 6072; activity call: inactive

What is on record for Dhpr (Dihydropteridine reductase)?
infection score, replicate 1: 1.45; cell count, replicate 1: 5712; activity call: inactive

Laid out differently: entries from further up
| Gene | reagent no. | infection score, replicate 1 | cell count, replicate 1 | activity call |
| --- | --- | --- | --- | --- |
| CG6254 | 1 | 8.39 | 3800 | inactive |
| SLC5A11 (Sodium/solute co-transporter-like 5A11) | 1 | 4.87 | 6591 | inactive |
| CG30110 | 1 | 2.2 | 5272 | inactive |
